Data set [1] is described as follows: Cytotoxicity against African green monkey Vero E6 cells assessed as reduction in cell viability measured after 72 hrs by MTS assay. Format: cell-based. Conditions: chlorocebus sabaeus, Vero E6 cells (Vero C1008). Put shortly: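 Uninfected Vero E6 cells (10 000/well) were exposed to compound for 72 h, in parallel with SARS-CoV CPE assays. Read-out was MTS reagent for 2–2.5 h, then formaldehyde fixation and absorbance at 495 nm relative to untreated cells. Eight concentrations in quadruplicate; CC50 by nonlinear regression.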

The next data set concerns Vero. Nature of the data set: Cytotoxicity against African green monkey Vero cells assessed as reduction in cell viability measured after 96 hrs by MTS assay. Format: cell-based. Conditions: chlorocebus sabaeus. Put shortly:
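Uninfected Vero CCL81 cells (5000/well) were treated for 96 h in parallel with ZIKV CPE assays. MTS absorbance at 495 nm was read after 2–2.5 h and fixation, expressed relative to untreated cells. Eight concentrations, quadruplicate; CC50 by nonlinear regression.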

With `Nc1ncnc2c1ncn2[C@H]1[C@H](O)[C@H](O)[C@@H](CO)[C@@H]1F`, the CC50 at 72 h in data set [1] fell in the range of 1320 to 3970 nM. Besides, the CC50 in the data set with Vero was 3.97 µM.

One may read the CC50 as the concentration that lowers cell viability or growth by half.

Source of the values: ChEMBL document CHEMBL4359835, “Design, Synthesis, and Anti-RNA Virus Activity of 6'-Fluorinated-Aristeromycin Analogues” (J Med Chem, 2019).
